Tests used:
Aspergillus niger lipase [1] = assay: Far-UV circular dichroism of lipase; details: 24 hours at 298.15 K, pH 7.4, native -9.34
Aspergillus niger lipase [2] = assay: Fluorescence quenching of lipase (Stern-Volmer and double-logarithmic plots); assay type: binding; details: pH 7.4
Experimental: Lipase and HSA were dialyzed against KCl- buffer (pH 7) for 24 hrs. Stock solution of lipase was prepared in 10 mM phosphate buffer at pH 7.4 to obtain a particular concentration. […] These samples were incubated at 298.0 K for about 24 hrs.
Fluorescence spectra were recorded on Hitachi F-4010 spectrofluorometer equipped with circulating water bath to maintain the temperature of the cell. The quartz cell of path length 1.0 cm and band slit of 5.0 nm were used for all experiments. The excitation wavelength was 280 nm for lipase and HSA. Emission spectra were recorded from 300–450 nm for lipase and HSA protein.
Herein, the fluorescence intensities were corrected for absorption of the exciting light and reabsorption of the emitted light to decrease the inner filter effect according to the following equation [10] (Chi & Liu, 2011): Fcorr=Fobs10^Aex+Aem/2, Where Fcorr and Fobs are corrected and experimentally measured fluorescence intensities, respectively. […] The fluorescence intensity utilized in this paper was the corrected intensity.
Emission fluorescence spectra were measured in the 300–450 nm interval, at a fixed excitation wavelength of 280 nm. Occurrence of an emission maximum at 344 nm in the fluorescence spectrum of lipase can be attributed to the presence of tryptophan residue of lipase. […]

Structure (SMILES) | MRE x 10^3 at 222nm (complex_400 μM) (Aspergillus niger lipase [1]) | n (stoichiometry of association process / number of binding sites) (Aspergillus niger lipase [2])
C=CC(C)(O)CCC=C(C)C (stereo not shown) [linalool] | -8.74 | 1.12
Cc1ccc(C(C)C)c(O)c1 [thymol] | -6.69 | 2.52
